The results in this text go back to paper PMC5035961.

For at least one entry, the source does not settle the construct or the ends of the probe. At least one verdict was read from the data and is not stated in words by the source.

The test system of data set [1] is B/NP (influenza B nucleoprotein) (Influenza B virus B/Memphis/13/03). Briefly: SEC-MALLS. Conditions: 5' phosphate, 3' OH; recombinant protein; letters put together from the description.
The test system is the same in data set [2]. Briefly: fluorescence anisotropy. To be noted: 5' phosphate, recombinant protein, label: 3' FAM. In general terms: Polarisation of emitted light reports the rotation of a fluorescent probe.

Turning to “UCUCUCUCUCUCUCUCUCUCUCUC [24-nt polyUC RNA, unlabelled]”, the binding result in data set [1] was “binds”.

For the sequence “UCUCUCUCUCUCUCUCUCUCUCUC [24-nt polyUC RNA]”, the binding result in data set [2] (50 mM NaCl, lower affinity than A/NP, letters put together from the description) is given as “binds”; in data set [2] (150 mM NaCl, no change with salt, letters put together from the description) it was “binds”; in data set [2] (300 mM NaCl, no change with salt, letters put together from the description), “binds”.

For the sequence UCUCUCUC [8-nt polyUC RNA], the binding result in data set [2] (50 mM NaCl, letters put together from the description) was “binds”.

Turning to “UCUCUCUCUCUC [12-nt polyUC RNA, (UC)6-FAM3']”, in data set [2] (50 mM NaCl), the binding result is reported as “binds”.
